From ChEMBL document CHEMBL4342517, “Design, Synthesis, and Mechanism Study of Benzenesulfonamide-Containing Phenylalanine Derivatives as Novel HIV-1 Capsid Inhibitors with Improved Antiviral Activities” (J Med Chem, 2020) come the findings set out here.

Tested on in the first data set: not listed separately
Description: in vitro. The note with it: human, MT4 cells.
Consider `COc1ccc(N(C)C(=O)[C@H](Cc2ccccc2)NC(=O)CN2CCN(S(=O)(=O)c3ccccc3)CC2=O)cc1`, for which the selectivity ratio came out at 3390.

Tested on in the next data set: not listed separately
In words: in vitro. The note with it: human, MT4 cells. The source holds these as a separate data set.
Regarding `COc1ccc(N(C)C(=O)[C@H](Cc2ccccc2)NC(=O)CN2CCN(S(=O)(=O)c3ccccc3)CC2=O)cc1`, the selectivity ratio stood at 153.

Tested on in another data set: not listed separately
Description: in vitro. The note with it: human, TZM-bl cells.
For the compound `COc1ccc(N(C)C(=O)[C@H](Cc2ccccc2)NC(=O)CNS(=O)(=O)c2ccc(N)cc2)cc1`, the selectivity ratio at 24 h is more than 6.06.
The same measure, in the same setting: for `COc1ccc(N(C)C(=O)[C@H](Cc2ccccc2)NC(=O)CNS(=O)(=O)c2ccccc2[N+](=O)[O-])cc1` the value was more than 4.35.
For the compound `COc1ccc(N(C)C(=O)[C@H](Cc2ccccc2)NC(=O)CN2CCN(S(=O)(=O)c3ccccc3)CC2=O)cc1`, the selectivity ratio at 24 h was more than 95.2.
Consider `COc1ccc(N(C)C(=O)[C@H](Cc2ccccc2)NC(=O)CN2C(=O)Nc3ccc(OC)cc3S2(=O)=O)cc1`, for which the selectivity ratio at 24 h is more than 7.41.
The same measure, in the same setting: then `COc1ccc(N(C)C(=O)[C@H](Cc2ccccc2)NC(=O)CN2CCN(S(=O)(=O)c3cccc(N)c3)CC2=O)cc1`, with more than 105; and `COc1ccc(N(C)C(=O)[C@H](Cc2ccccc2)NC(=O)CN2CCN(S(=O)(=O)c3ccccc3F)CC2=O)cc1`, with more than 71.4.
Still for that read-out and setting: for `COc1ccc(N(C)C(=O)[C@H](Cc2ccccc2)NC(=O)CN2CCN(S(=O)(=O)c3ccccc3[N+](=O)[O-])CC2=O)cc1` the value was more than 32.8; for `COc1ccc(N(C)C(=O)[C@H](Cc2ccccc2)NC(=O)CNS(=O)(=O)c2ccc(Cl)cc2)cc1`, more than 3.92.
The same measure, in the same setting: for `COc1ccc(N(C)C(=O)[C@H](Cc2ccccc2)NC(=O)CN2C(=O)N(CC(=O)N[C@@H](Cc3ccccc3)C(=O)N(C)c3ccc(OC)cc3)S(=O)(=O)c3cc(F)ccc32)cc1` the value was more than 6.06; for `COc1ccc(N(C)C(=O)[C@H](Cc2ccccc2)NC(=O)CN2CCN(S(=O)(=O)c3cccc([N+](=O)[O-])c3)CC2=O)cc1`, more than 48.8.
As for `COc1ccc(N(C)C(=O)[C@H](Cc2ccccc2)NC(=O)CNS(=O)(=O)c2ccc(C)cc2)cc1`, the selectivity ratio at 24 h was more than 6.45.
For `COc1ccc(N(C)C(=O)[C@H](Cc2ccccc2)NC(=O)CNS(=O)(=O)c2c(C)cc(C)cc2C)cc1`, the selectivity ratio at 24 h was more than 3.57.
Still for that read-out and setting: for `COc1ccc(N(C)C(=O)[C@H](Cc2ccccc2)NC(=O)CNS(=O)(=O)c2ccc(OC)cc2)cc1` the value was more than 3.77; for `COc1ccc(N(C)C(=O)[C@H](Cc2ccccc2)NC(=O)CN2C(=O)N(CC(=O)N[C@@H](Cc3ccccc3)C(=O)N(C)c3ccc(OC)cc3)S(=O)(=O)c3cc(Br)ccc32)cc1`, more than 3.85; for `COc1ccc(N(C)C(=O)[C@H](Cc2ccccc2)NC(=O)CNS(=O)(=O)c2c(C(C)C)cc(C(C)C)cc2C(C)C)cc1`, more than 4.17.
As to `COc1ccc(N(C)C(=O)[C@H](Cc2ccccc2)NC(=O)CNS(=O)(=O)c2ccc(F)cc2)cc1`, the selectivity ratio at 24 h is more than 5.88.
For `COc1ccc(N(C)C(=O)[C@H](Cc2ccccc2)NC(=O)CNS(=O)(=O)c2ccccc2N)cc1`, the selectivity ratio at 24 h was more than 4.44.
The same measure, in the same setting: for `COc1ccc(N(C)C(=O)[C@H](Cc2ccccc2)NC(=O)CNS(=O)(=O)c2cc(C)cc(C)c2)cc1` the value was more than 4.26; for `COc1ccc(N(C)C(=O)[C@H](Cc2ccccc2)NC(=O)CN2CCN(S(=O)(=O)c3ccc(OC)cc3)CC2=O)cc1`, more than 52.6.
Same read-out and setting: then `COc1ccc(N(C)C(=O)[C@H](Cc2ccccc2)NC(=O)CN2C(=O)Nc3ccc(C)cc3S2(=O)=O)cc1`, with more than 6.25; and `COc1ccc(N(C)C(=O)[C@H](Cc2ccccc2)NC(=O)CNS(=O)(=O)c2cccc([N+](=O)[O-])c2)cc1`, with more than 4.26; and `COc1ccc(N(C)C(=O)[C@H](Cc2ccccc2)NC(=O)CNS(=O)(=O)c2cccc(N)c2)cc1`, with more than 4.88.
Still for that read-out and setting: for `COc1ccc(N(C)C(=O)[C@H](Cc2ccccc2)NC(=O)CNS(=O)(=O)c2ccc(Br)cc2)cc1` the value was more than 4.35.
Consider `COc1ccc(N(C)C(=O)[C@H](Cc2ccccc2)NC(=O)CN2CCN(S(=O)(=O)c3ccccc3N)CC2=O)cc1`, for which the selectivity ratio at 24 h is more than 64.5.
Still for that read-out and setting: for `COc1ccc(N(C)C(=O)[C@H](Cc2ccccc2)NC(=O)CN2CCN(S(=O)(=O)c3ccc(Cl)cc3)CC2=O)cc1` the value was more than 31.7; for `COc1ccc(N(C)C(=O)[C@H](Cc2ccccc2)NC(=O)CN2C(=O)N(CC(=O)N[C@@H](Cc3ccccc3)C(=O)N(C)c3ccc(OC)cc3)S(=O)(=O)c3cc(Cl)ccc32)cc1`, more than 4.76.

The subject of a further data set is TZM. Description: Cytotoxicity in uninfected human TZM-bl assessed as reduction in cell viability incubated for 1 day by Cyto-tox-Glo cytotoxicity assay. Type of data set: cell-based. The note with it: 24 h.
One may read the CC50 as the concentration that lowers cell viability or growth by half. As for `COc1ccc(N(C)C(=O)[C@H](Cc2ccccc2)NC(=O)CN2CCN(S(=O)(=O)c3ccccc3[N+](=O)[O-])CC2=O)cc1`, the 50% cytotoxic concentration (CC50) is more than 32.8 µM.
